A mixed list of measured activities; the numbers were collected in NIAID ChemDB.

Common to all: enzyme or target tests

a–b is a range or a potency band. An empty or dashed field is not shown. ICn is the concentration giving n% inhibition. Percent inhibition refers to the dose given; in toxicity tests it is the harm to the cells. Conditions beyond the fields shown may differ between rows.

smiles | tested at | protein | species | read-out | value
Cc1ccc(CNC(=O)Nc2cscc2-c2nc(C(=O)O)c(O)c(=O)[nH]2)cc1 | - | HCV polymerase | Hepatitis C virus | IC50 | <25 µM
CC[C@@H](C=O)NC(=O)[C@@H]1C[C@@H](OCc2ccccc2)CN1C(=O)[C@@H](NC(=O)c1cccc(OC)c1OC)C(C)C | - | NS3 protease | Hepatitis C virus | Ki | >100 µM
CNC(=O)c1c(-c2ccc(F)cc2)oc2cc(N(CS(C)(=O)=O)c3nccs3)c(OC(C)C)cc12 | - | Nonstructural protein 5B | Hepatitis C virus | IC50 | ≤0.5 µM
O=C(Nc1ccsc1-c1nc(C(=O)O)c(O)c(=O)[nH]1)OCCc1ccccc1C(F)(F)F | - | HCV polymerase | Hepatitis C virus | IC50 | <25 µM
O=C(O)c1ccc2c(c1)nc(-c1ccc3nc(-c4cc(-c5ccc(Cl)c(Cl)c5)no4)ccc3c1)n2C1CCCCC1 | 33 µM | NS5B polymerase | Hepatitis C virus | inhibition | 99.64%
CC[C@H](NC(=O)[C@H](CC(C)C)NC(=O)[C@@H](NC(=O)[C@@H](NC(=O)c1cnccn1)C(C)C)C(C)C)C(=O)C(=O)NCC(C)OC | - | NS3 protease | Hepatitis C virus | Ki | 1–100 µM
COc1nc(NCCCn2ccnc2)nc(Nc2ccc3[nH]ncc3c2)n1 | 0.01 µg/mL | DNA polymerase | Hepatitis B virus | inhibition | 25%
O=C(NC(CO)C(=O)O)c1cc2nc(-c3ccc(OCc4ccccc4)cc3)c(C3CCCCC3)c(=O)n2[nH]1 | - | RNA-dependent RNA polymerase | Hepatitis C virus | IC50 | 1–10 µM
CNC(=O)c1ccc(-c2ccccc2)c(-c2ccc3cc(-c4nc5cc(C(=O)O)ccc5n4C4CCCCC4)ccc3n2)c1 | 33 µM | NS5B polymerase | Hepatitis C virus | inhibition | 101%
COc1nc(Nc2ccc3[nH]ncc3c2)nc(N2CCCC2)n1 | 0.01 µg/mL | DNA polymerase | Hepatitis B virus | inhibition | 10%
O=C(Nc1ccsc1-c1nc(C(=O)O)c(O)c(=O)[nH]1)OCCc1cccc2ccccc12 | - | HCV polymerase | Hepatitis C virus | IC50 | <25 µM
CC(C)=CCCc1c(-c2ccc(OCc3ccccc3)cc2)nc2c(C(=O)O)c[nH]n2c1=O | - | RNA-dependent RNA polymerase | Hepatitis C virus | IC50 | 1–10 µM
CC(=O)c1ccc(S(=O)(=O)Nc2cc(-c3ccccc3)sc2C(=O)O)cc1 | - | NS3 ATPase | Hepatitis C virus | IC50 | 5–20 µM
O=C(Cc1ccccc1Cl)Nc1ccsc1-c1nc(C(=O)O)c(O)c(=O)[nH]1 | - | HCV polymerase | Hepatitis C virus | IC50 | <25 µM
O=C(N[C@@H](Cc1cc2ccccc2[nH]1)C(=O)O)c1cc2nc(-c3ccco3)c(C3CCCCC3)c(=O)n2[nH]1 | - | RNA-dependent RNA polymerase | Hepatitis C virus | IC50 | <1 µM
CNC(=O)c1c(-c2ccc(F)cc2)oc2cc(C3CCN(C(C)=O)C3)c(OC)cc12 | - | Nonstructural protein 5B | Hepatitis C virus | IC50 | ≤0.5 µM
COCCNc1nc(Nc2ccc3[nH]ncc3c2)nc(OC)n1 | 0.01 µg/mL | DNA polymerase | Hepatitis B virus | inhibition | 52%
Cc1ccccc1S(=O)(=O)Nc1cc(-c2nccs2)sc1C(=O)O | - | NS3 ATPase | Hepatitis C virus | IC50 | <5 µM
O=C(O)c1ccc2c(c1)nc(-c1ccc3ccc(-c4ccccc4)nc3c1)n2C1CCCCC1 | 33 µM | NS5B polymerase | Hepatitis C virus | inhibition | 90.5%
CC[C@@H](C=O)NC(=O)[C@@H]1C[C@@H](OCc2ccccc2)CN1C(=O)[C@@H](NC(=O)CCC(=O)c1ccccc1)C(C)C | - | NS3 protease | Hepatitis C virus | Ki | >100 µM
O=C(O)c1ccc2c(c1)nc(-c1ccc3nc(-c4ccncc4)ccc3c1)n2C1CCCCC1 | 33 µM | NS5B polymerase | Hepatitis C virus | inhibition | 87.01%
Cc1cc(C(=O)N(C)c2cc(-c3ccccc3)sc2C(=O)O)ccc1Br | - | NS3 ATPase | Hepatitis C virus | IC50 | <5 µM
CNC(=O)c1c(-c2ccc(F)cc2)oc2cc(N(Cc3c(C)noc3C)S(C)(=O)=O)c(OC(C)C)cc12 | - | Nonstructural protein 5B | Hepatitis C virus | IC50 | ≤0.5 µM
O=C(O)c1cc2nc(-c3cccc(Cl)c3)cc(-c3ccccc3Cl)n2n1 | - | RNA-dependent RNA polymerase | Hepatitis C virus | IC50 | >10 µM
O=C(O)c1ccc2c(c1)nc(-c1ccc3nc(-c4ccccc4)cc(NCCCn4ccnc4)c3c1)n2C1CCCCC1 | 33 µM | NS5B polymerase | Hepatitis C virus | inhibition | 76.27%
COc1nc(NCCc2ccccn2)nc(Nc2ccc3[nH]ncc3c2)n1 | 1 µg/mL | Nonstructural protein 5B | Hepatitis C virus | inhibition | 28%
O=C(O)[C@@H]1CCCN(C(=O)c2cnn3c(C4CCCCC4)c(-c4ccc(F)cc4F)cnc23)C1 | - | RNA-dependent RNA polymerase | Hepatitis C virus | IC50 | >10 µM
O=C(O)c1sc(-c2ccccc2)cc1N(Cc1ccc(Cl)cc1)C(=O)CC1CCCC1 | - | NS3 ATPase | Hepatitis C virus | IC50 | <5 µM
CC[C@@H](C=O)NC(=O)[C@@H]1C[C@@H](OCc2ccccc2)CN1C(=O)[C@@H](NC(=O)[C@H](Cc1cnc[nH]1)NC(=O)c1cnccn1)C(C)C | - | NS3 protease | Hepatitis C virus | Ki | >100 µM
COc1ccc(-c2cnc3c(C(=O)O)cnn3c2C2CCCCC2)cc1F | - | RNA-dependent RNA polymerase | Hepatitis C virus | IC50 | 1–10 µM
CC(C)=CCN(C(=O)c1ccc(C)cc1)c1cc(-c2ccccc2)sc1C(=O)O | - | NS3 ATPase | Hepatitis C virus | IC50 | 5–20 µM
O=C(c1ccc2c(c1)nc(-c1cc3ccc(-c4ccccc4-c4ccc(Cl)cc4)nc3cc1F)n2C1CCCCC1)N1CCC(O)CC1 | 33 µM | NS5B polymerase | Hepatitis C virus | inhibition | 89.64%
CNC(=O)c1c(-c2ccc(F)cc2)oc2cc(C(C)(C)O)c(OC)cc12 | - | Nonstructural protein 5B | Hepatitis C virus | IC50 | ≤0.5 µM
COc1nc(NCCN2CCOCC2)nc(Nc2ccc3cn[nH]c3c2)n1 | - | DNA polymerase | Hepatitis B virus | IC50 | 0.01–0.1 µg/mL
Cc1ccccc1S(=O)(=O)Nc1cc(-c2ccc(O)cc2)sc1C(=O)O | - | NS3 ATPase | Hepatitis C virus | IC50 | <5 µM
COc1ccccc1NC(=O)Nc1cccc(-c2nc(C(=O)O)c(O)c(=O)[nH]2)c1 | - | HCV polymerase | Hepatitis C virus | IC50 | <100 µM
COc1ccc(-c2ccco2)c(-c2ccc3cc(-c4nc5cc(C(=O)O)ccc5n4C4CCCCC4)ccc3n2)c1 | 33 µM | NS5B polymerase | Hepatitis C virus | inhibition | 98.26%
CC[C@@H](C=O)NC(=O)[C@@H]1C[C@@H](OCc2ccccc2)CN1C(=O)[C@@H](NC(=O)c1cccc2ccccc12)C(C)C | - | NS3 protease | Hepatitis C virus | Ki | 1–100 µM
CN1CCN(C(=O)c2ccc3c(c2)nc(-c2cc4ccc(-c5ccccc5-c5ccc(Cl)cc5)nc4cc2F)n3C2CCCCC2)CC1 | 100 µM | NS5B polymerase | Hepatitis C virus | inhibition | 91.41%
O=C(O)c1cc2nc(-c3ccc(Oc4ccccc4)cc3)cc(-c3ccc(Cl)c(Cl)c3)n2n1 | - | RNA-dependent RNA polymerase | Hepatitis C virus | IC50 | 1–10 µM
O=C(NCc1cccc(Cl)c1Cl)Nc1cscc1-c1nc(C(=O)O)c(O)c(=O)[nH]1 | - | HCV polymerase | Hepatitis C virus | IC50 | <25 µM

5 of the rows above, restated:

smiles,tested at,protein,species,read-out,value
CNC(=O)c1c(-c2ccc(F)cc2)oc2cc(N(Cc3c(C)noc3C)S(C)(=O)=O)c(OC(C)C)cc12,-,Nonstructural protein 5B,Hepatitis C virus,IC50,≤0.5 µM
CNC(=O)c1ccc(-c2ccccc2)c(-c2ccc3cc(-c4nc5cc(C(=O)O)ccc5n4C4CCCCC4)ccc3n2)c1,33 µM,NS5B polymerase,Hepatitis C virus,inhibition,101%
CC[C@H](NC(=O)[C@H](CC(C)C)NC(=O)[C@@H](NC(=O)[C@@H](NC(=O)c1cnccn1)C(C)C)C(C)C)C(=O)C(=O)NCC(C)OC,-,NS3 protease,Hepatitis C virus,Ki,1–100 µM
CC(C)=CCN(C(=O)c1ccc(C)cc1)c1cc(-c2ccccc2)sc1C(=O)O,-,NS3 ATPase,Hepatitis C virus,IC50,5–20 µM
Cc1ccc(CNC(=O)Nc2cscc2-c2nc(C(=O)O)c(O)c(=O)[nH]2)cc1,-,HCV polymerase,Hepatitis C virus,IC50,<25 µM